Anti-infective test results gathered from many reports (values: NIAID ChemDB through PubChem).

Shared fields: tests in culture; species: Herpes simplex virus 1; read by: cytopathic effect; endpoint: EC50

Blank or dashed fields: not listed here.

compound	strain	cells	value
CCCCCCCc1nc2c(N)ncnc2n1[C@H]1C[C@H](O)[C@@H](CO)O1	KOS	ESM	>40 µg/mL
CC1(C)[C@@H](CCO)C[C@H]1n1cnc2c(N)nc(N)nc21	KOS	E6SM	>400 µg/mL
CCc1nc(-n2c(C)nc3ccc(Br)cc3c2=O)nc(N)c1-c1ccc(Cl)cc1	KOS ACV (TK-)	E6SM	>16 µg/mL
OC[C@H]1O[C@H](c2cc(F)c(F)cc2F)C[C@@H]1O	KOS/ACV-R	E6SM	>400 µg/mL
O=c1[nH]c(=O)n([C@H]2C[C@H](O)[C@@H](CO)O2)cc1/C=C/Br	KOS	E6SM	0.001 µM
CC(=O)Nn1c(-c2cn(-c3ccccc3)nc2-c2ccccc2)n[nH]c1=S	KOS	HEL	>80 µg/mL
COc1cc(F)c([C@H]2C[C@H](O)[C@@H](CO)O2)cc1[N+](=O)[O-]	McIntyre	E6SM	>400 µg/mL
CCc1nc(-n2c(-c3ccccc3)nc3ccc(Br)cc3c2=O)nc(N)c1-c1ccc(Cl)cc1	KOS	E6SM	>16 µg/mL
Cc1cn([C@@H]2O[C@H](COP(=O)(O)O)[C@@H](O)[C@@H]2O)c(=O)[nH]c1=O	CHR-3	HELF	1 µg/mL
COc1cc(Cc2cnc(-n3c(C)nc4ccc(Br)cc4c3=O)nc2N)cc(OC)c1OC	KOS ACV (TK-)	E6SM	>80 µg/mL
Nc1nc2c(ncn2COCCOP(=O)(O)OP(=O)(O)O)c(=O)[nH]1		VERO	0.25 µg/mL
Nc1ccn([C@H]2CO[C@H](CO)[C@@H](O)C2)c(=O)n1	TK-/TK+ (VMW 1837)	E6SM	4 µg/mL
COC(=O)[C@H](C)NP(=O)(OC[C@H]1C/C1=C/n1cnc2c(N)nc(N)nc21)Oc1ccccc1		HFF	2.7 µM
Nc1ncnc2c1ncn2C[C@H](O)CO	5 (PAA-resistant)	PRK	>400 µg/mL
CCCCCC#Cc1nc2c(N)ncnc2n1[C@H]1C[C@H](O)[C@@H](CO)O1	B2006 (TK-)	ESM	>100 µg/mL
Nc1nc(=O)n([C@H]2C[C@H](O)[C@@H](CO)O2)cc1Br	KOS F McIntyre	PRK	0.1 µg/mL
COC(CI)c1cc([C@H]2C[C@H](O)[C@@H](CO)O2)c(F)cc1F	KOS (TK-)	E6SM	>80 µg/mL
COC(=O)[C@H](C)NP(=O)(OC[C@H]1C/C1=C/n1cnc2c(OC)nc(N)nc21)Oc1ccccc1		HFF	0.78 µM
O=c1[nH]c(=O)n([C@H]2C[C@H](O)[C@@H](CO)O2)cc1/C=C/Br	5 (PAA-resistant)	PRK	0.02 µg/mL
O=C(O)CP(=O)(O)O	KOS F McIntyre	PRK	10 µg/mL
Nc1nc2c(ncn2COCCO)c(=O)[nH]1		VERO	0.11 µM
C#Cc1nc2c(N)ncnc2n1[C@H]1C[C@H](O)[C@@H](CO)O1	B2006 (TK-)	ESM	>4 µg/mL
Nc1nc2c(ncn2COCCO)c(=O)[nH]1	KOS		0.5 µg/mL
Nc1nc(N)c2ncn([C@H]3S[C@H](CO)[C@@H](O)[C@@H]3F)c2n1	VR		9 µg/mL
CCCCCCCCCCC#Cc1cn(S(=O)(=O)c2ccc(C)cc2)c(=O)[nH]c1=O	KOS	HEL	>200 µM
CC1(C)[C@@H](CCO)C[C@H]1n1nnc2c(Cl)nc(N)nc21	TK-/B2006	E6SM	20 µg/mL
CNC(=S)NNC(=O)c1cc(-c2cc(F)cc(F)c2)ccc1O	KOS	HELA/VERO/HEL	16 µg/mL
O=c1[nH]c(=O)n([C@@H]2S[C@H](CO)[C@@H](O)[C@@H]2F)cc1I	VR		0.037 µg/mL
C#Cc1cn([C@H]2C[C@H](O)[C@@H](CO)O2)c(=O)[nH]c1=O	KOS	PRK	0.1 µg/mL
Nc1ccn(C=C2C[C@H]2CO)c(=O)n1		HFF	104 µM
CCCCCCCCC#Cc1c[nH]c(=O)[nH]c1=O	KOS	HEL	>40 µM
Nc1nc2c(ncn2COCCOP(=O)(O)O)c(=O)[nH]1		VERO	0.16 µg/mL
CC1=Nn2c(nnc2-c2cn(-c3ccccc3)nc2-c2ccccc2)SC1	KOS	HEL	>16 µg/mL
Nc1nc2c(ncn2COC(CO)CO)c(=O)[nH]1	B2006 (TK-)	HEL	16 µM
O=C(/C=C/c1ccc(O)c(O)c1)O[C@@H]1CC(O)(C(=O)O)C[C@@H](OC(=O)/C=C/c2ccc(O)c(O)c2)C1O	MacIntyre	VERO	>100 µM
CCOC(=O)C1=CSc2nnc(-c3cn(-c4ccccc4)nc3-c3ccccc3)n2N=C1N	KOS (TK-)	HEL	>16 µg/mL
C#Cc1cn(S(=O)(=O)c2ccc(C)cc2)c(=O)[nH]c1=O	KOS	HEL	>200 µM
O=c1[nH]c(=O)n([C@@H]2OC3COP(=O)(O)OC3[C@H]2O)cc1I	McIntyre	PRK	20 µg/mL
O=c1ccn(C2CC(O[N+](=O)[O-])C(CO)O2)c(=O)[nH]1	KOS	E6SM	>400 µg/mL
OC[C@H]1O[C@@H](c2cc(Cl)c(F)cc2F)C[C@@H]1O	McIntyre	E6SM	>400 µg/mL
Nc1ncnc2c1ncn2[C@H]1CO[C@H](CO)[C@@H](O)C1	KOS	E6SM	>20 µg/mL
CCCCCCCC/C=C/CCCCCCCC(=O)O	HU-3	HEL	>100 µM
Nc1nc(Cl)c2ncn(/C=C3/C[C@H]3CO)c2n1		HFF	76.4 µM
CCCc1cn([C@H]2C[C@H](O)[C@@H](COP(=O)(O)O)O2)c(=O)[nH]c1=O	B2006 (TK-)	HSF	>797 µg/mL
Nc1nc(F)nc2c1ncn2[C@@H]1S[C@H](CO)[C@@H](O)[C@@H]1F	VR		9 µg/mL
OC[C@H]1O[C@@H](c2cc(C(O)CBr)c(F)cc2F)C[C@@H]1O	KOS	E6SM	>3.2 µg/mL
COC(=O)[C@H](C)NP(=O)(OC[C@H]1C/C1=C/n1cnc2c(=O)[nH]c(N)nc21)Oc1ccccc1		HFF	20.2 µM
O=[N+]([O-])c1cc([C@H]2C[C@H](O)[C@@H](CO)O2)c(F)cc1F	KOS/ACV-R	E6SM	>400 µg/mL
c1ccc(C2=Nn3c(nnc3-c3cn(-c4ccccc4)nc3-c3ccccc3)SC2)cc1	KOS (TK-)	HEL	>3.2 µg/mL
Nc1nc(Cl)nc2c1ncn2[C@@H]1S[C@H](CO)[C@@H](O)[C@@H]1F	VR		1 µg/mL
COC(=O)[C@H](C)NP(=O)(OC[C@H]1O[C@@H](n2cc(/C=C/Br)c(=O)[nH]c2=O)C[C@@H]1O)Oc1ccc(Cl)cc1	KOS TK- acyclovir-resistant	E6SM	16 µM
CCc1cn([C@H]2S[C@H](CO)[C@@H](O)[C@@H]2F)c(=O)[nH]c1=O	VR		1 µg/mL
C#CCOc1cn([C@H]2C[C@H](O)[C@@H](CO)O2)c(=O)[nH]c1=O	KOS F McIntyre	PRK	1 µg/mL
Nc1nc(=O)n([C@H]2C[C@H](O)[C@@H](CO)O2)cc1/C=C\Cl	B2006 (TK-)	PRK	>200 µg/mL
CCCCC#Cc1cn(S(=O)(=O)c2ccc(C)cc2)c(=O)[nH]c1=O	KOS	HEL	>40 µM
CCCCCCCC/C=C/CCCCCCCC(=O)OCC(CO)OCn1cnc2c(=O)[nH]c(N)nc21	KOS	HEL	0.001 µM
CCc1cn([C@H]2C[C@H](O)[C@@H](COP(=O)(O)O)O2)c(=O)[nH]c1=O	CL 101 (TK-)	PRK	>820 µg/mL
CCCCC/C=C\c1nc2c(N)ncnc2n1[C@H]1C[C@H](O)[C@@H](CO)O1	B2006 (TK-)	ESM	>40 µg/mL
CCCCCCCCc1cc2cnc(=O)[nH]c2o1	KOS	HEL	>200 µM
Nc1nc(Cl)c2ncn([C@H]3CO[C@@H](CO)C3)c2n1	KOS	E6SM	300 µg/mL
CCCCC#Cc1c[nH]c(=O)[nH]c1=O	KOS	HEL	>200 µM
Cc1ccc(NC(=S)NNC(=O)c2cc(-c3cc(F)cc(F)c3)ccc2O)cc1	KOS	HELA/VERO/HEL	0.064 µg/mL
Nc1nc(N)c2ncn(C=C3CC3CO)c2n1		HFF	413 µM
Nc1nc(=O)n([C@H]2C[C@H](O)[C@@H](CO)O2)cc1/C=C/Cl	VMW1837 (TK-)	PRK	>400 µg/mL
CC1(C)[C@@H](CCO)C[C@H]1n1nnc2c(N)nc(N)nc21	TK-/B2006	E6SM	70 µg/mL
O=c1[nH]c(=O)n([C@@H]2S[C@H](CO)[C@@H](O)[C@@H]2F)cc1CCCl	VR		0.11 µg/mL
Nc1nc2c(ccn2[C@H]2CO[C@@H](CO)C2)c(=O)[nH]1	KOS	E6SM	150 µg/mL
Nc1nc2c(ncn2COC(CO)COP(=O)(O)O)c(=O)[nH]1		VERO	0.08 µg/mL
CC1(C)[C@@H](CCO)C[C@H]1n1cnc2c(N)ncnc21	TK-/VMW 1837	E6SM	100 µg/mL

Again, the opening 7 rows:

compound,strain,cells,value
CCCCCCCc1nc2c(N)ncnc2n1[C@H]1C[C@H](O)[C@@H](CO)O1,KOS,ESM,>40 µg/mL
CC1(C)[C@@H](CCO)C[C@H]1n1cnc2c(N)nc(N)nc21,KOS,E6SM,>400 µg/mL
CCc1nc(-n2c(C)nc3ccc(Br)cc3c2=O)nc(N)c1-c1ccc(Cl)cc1,KOS ACV (TK-),E6SM,>16 µg/mL
OC[C@H]1O[C@H](c2cc(F)c(F)cc2F)C[C@@H]1O,KOS/ACV-R,E6SM,>400 µg/mL
O=c1[nH]c(=O)n([C@H]2C[C@H](O)[C@@H](CO)O2)cc1/C=C/Br,KOS,E6SM,0.001 µM
CC(=O)Nn1c(-c2cn(-c3ccccc3)nc2-c2ccccc2)n[nH]c1=S,KOS,HEL,>80 µg/mL
COc1cc(F)c([C@H]2C[C@H](O)[C@@H](CO)O2)cc1[N+](=O)[O-],McIntyre,E6SM,>400 µg/mL

Rows are shuffled and stem from different studies. ECn: concentration that inhibits the pathogen or its effect by n%.